Measured values from several laboratories, pooled; numbers as filed in NIAID ChemDB.

Common to all: whole-cell or culture tests; agent: HIV-1; cells: MT-4; measure: EC50

Blank or dashed fields: not listed here.

{"SMILES": "CCCc1nnc(C[C@H](C[C@H](O)CN2CCN(Cc3ccc(-c4ccc(Cl)cc4)o3)C[C@H]2C(=O)NCC(F)(F)F)C(=O)N[C@H]2c3ccccc3OC[C@H]2O)o1", "strain or isolate": "NL4-3 WT", "read by": "p24", "result": "<0.008 µM"}
{"SMILES": "COC(=O)CNP(=O)(NCC(=O)OC)OC[C@H]1O[C@@H](n2cc(C)c(=O)[nH]c2=O)C[C@@H]1F", "read by": "cytopathic effect / XTT", "result": "1.5 µM"}
{"SMILES": "CCn1c(C)c(C(C)(C)C)s/c1=N\\S(=O)(=O)c1cccc([N+](=O)[O-])c1", "strain or isolate": "IIIB", "read by": "cytopathic effect / MTT", "result": ">11.5 µM"}
{"SMILES": "Cc1ccnc2c1NC(=O)c1cccnc1N2C1CC1", "strain or isolate": "NL4-3", "changes": "RT-K103N Y181C", "read by": "cytopathic effect", "result": ">15 µM"}
{"SMILES": "Nc1ccn([C@H]2CO[C@@H](CO)S2)c(=O)n1", "strain or isolate": "HXB2D", "read by": "RT activity", "result": "3.5 µM"}
{"SMILES": "Cc1cn([C@H]2C[C@H](N=[N+]=[N-])[C@@H](CO)O2)c(=O)[nH]c1=O", "strain or isolate": "BI-12.96 (HXB2(RT-A62V S68G T69D V75I F77L F116Y Q151M))", "changes": "RT-A62V S68G T69D V75I F77L F116Y Q151M", "read by": "cytopathic effect", "result": ">5 µM"}
{"SMILES": "CNC(=O)CSP(=O)(NCC(=O)OC)OC[C@H]1O[C@@H](n2cc(C)c(=O)[nH]c2=O)C[C@@H]1F", "read by": "cytopathic effect / XTT", "result": "0.005 µM"}
{"SMILES": "CCCc1nnc(C[C@H](C[C@H](O)CN2CCN(C(C)(C)c3ncc(-c4ccc(Cl)cc4)o3)C[C@H]2C(=O)NCC(F)(F)F)C(=O)N[C@H]2c3ccccc3OC[C@H]2O)o1", "strain or isolate": "V-18 Clinical isolate", "changes": "PR-L10I M36I N37D M46I R57K L63P A71V G73S I84V L90M I93L", "read by": "p24", "result": "<0.063 µM"}
{"SMILES": "Cc1cc(C#N)cc(C)c1Oc1nc(Nc2ccc(C#N)cc2)ncc1SCC(=O)N1CCSCC1", "changes": "Y181C", "read by": "MTT", "result": "0.36 µM"}
{"SMILES": "Cc1cc(C#CC2CC2)cc(C)c1Oc1ccnc(Nc2ccc(C#N)cc2)n1", "strain or isolate": "IIIB", "read by": "MTT", "result": "0.007 µM"}
{"SMILES": "CCCCCCCSc1nsc(NC(=O)Nc2ccccc2)n1", "strain or isolate": "NL4-3", "read by": "cytopathic effect", "result": "14.7 µM"}
{"SMILES": "Cc1cc(C#Cc2ccccc2)cc(C)c1Oc1ccnc(Nc2ccc(C#N)cc2)n1", "strain or isolate": "IIIB", "changes": "E138K", "read by": "MTT", "result": "0.237 µM"}
{"SMILES": "Cc1nnc(C[C@H](C[C@H](O)CN2CCN(C(C)(C)c3ncc(-c4ccc(Cl)cc4)o3)C[C@H]2C(=O)NCC(F)(F)F)C(=O)N[C@H]2c3ccccc3OC[C@H]2O)o1", "strain or isolate": "V-18 Clinical isolate", "changes": "PR-L10I M36I N37D M46I R57K L63P A71V G73S I84V L90M I93L", "read by": "p24", "result": "<0.063 µM"}
{"SMILES": "O=c1ccn([C@H]2C[C@H](CO)CS2)c(=O)[nH]1", "read by": "cytopathic effect", "result": ">100 µM"}
{"SMILES": "CCC[C@@]1(CCc2ccccc2)CC(O)=C([C@H](CC)c2cccc(NS(=O)(=O)c3ccc(C(F)(F)F)cn3)c2)C(=O)O1", "strain or isolate": "NL4-3", "read by": "p24 / luminescence", "result": "0.3629 µM"}
{"SMILES": "COc1nc(=O)[nH]c2c1C(c1ccc([N+](=O)[O-])cc1)c1c(OC)nc(=O)[nH]c1O2", "strain or isolate": "IIIB", "read by": "cytopathic effect", "result": ">313 µM"}
{"SMILES": "Nc1ccn([C@H]2CC[C@@H](CO)O2)c(=O)n1", "strain or isolate": "HXB2D", "read by": "RT activity", "result": "0.065 µM"}
{"SMILES": "CC(C)c1s/c(=N\\S(=O)(=O)c2cccc([N+](=O)[O-])c2)n(C)c1Cl", "strain or isolate": "IIIB", "read by": "cytopathic effect / MTT", "result": "0.048 µM"}
{"SMILES": "O=C(N[C@H]1c2ccccc2OC[C@H]1O)[C@H](Cc1nnc(-c2ccccc2)o1)C[C@H](O)CN1CCN(Cc2ccc(-c3ccc(Cl)cc3)o2)C[C@H]1C(=O)NCC(F)(F)F", "strain or isolate": "NL4-3 WT", "read by": "p24", "result": "<0.0156 µM"}
{"SMILES": "Cc1ccnc2c1NC(=O)c1cccnc1N2C1CC1", "strain or isolate": "IIIB", "changes": "F227L + V106A", "read by": "MTT", "result": "3.538 µM"}
{"SMILES": "Cc1cn([C@H]2C[C@H](N=[N+]=[N-])[C@@H](CO)O2)c(=O)[nH]c1=O", "changes": "RES056", "read by": "MTT", "result": "0.0167 µM"}
{"SMILES": "Nc1nc(=O)n([C@H]2CO[C@@H](CO)S2)cc1F", "strain or isolate": "HXB2D", "read by": "RT activity", "result": "3 µM"}
{"SMILES": "Cc1cc(C#Cc2ccc(N)cc2)cc(C)c1Oc1ccnc(Nc2ccc(C#N)cc2)n1", "strain or isolate": "IIIB", "changes": "E138K", "read by": "MTT", "result": "0.101 µM"}
{"SMILES": "Nc1ncnc2c1ncn2[C@@H]1C[C@H](CO)CS1", "read by": "cytopathic effect", "result": ">19.15 µM"}
{"SMILES": "O=c1[nH]cnc2c1ncn2[C@H]1CC[C@@H](CO)O1", "strain or isolate": "IIIB", "read by": "p24", "result": "19 µM"}
{"SMILES": "CCCc1nnc(C[C@H](C[C@H](O)CN2CCN(C(C)(C)c3ncc(-c4ccc(F)cc4)o3)C[C@H]2C(=O)NCC(F)(F)F)C(=O)N[C@H]2c3ccccc3OC[C@H]2O)o1", "strain or isolate": "Q-60 Clinical isolate", "changes": "PR-L10I N37S R41K M46I I54V I62V L63P A71V V77I V82A L90M I93L", "read by": "p24", "result": "<0.008 µM"}
{"SMILES": "O=c1[nH]cnc2c1ncn2[C@H]1CC[C@@H](CO)O1", "strain or isolate": "HXB2D", "read by": "RT activity", "result": "0.53 µM"}
{"SMILES": "CC(C)CN(C[C@@H](O)[C@H](Cc1ccccc1)NC(=O)O[C@H]1CCOC1)S(=O)(=O)c1ccc(N)cc1", "strain or isolate": "NL4-3", "changes": "L10F M46I I54V V82A", "read by": "p24 / luminescence", "result": "0.4201 µM"}
{"SMILES": "CNC(C)[C@H]1O[C@H](O[C@@H]2[C@@H](O)[C@H](O[C@@H]3OC[C@@](C)(O)[C@@H](NC)[C@@H]3O)[C@@H](NC(=O)[C@@H](N)CCCN=C(N)N)C[C@H]2NC(=O)[C@@H](N)CCCN=C(N)N)[C@H](NC(=O)[C@@H](N)CCCN=C(N)N)[C@@H](O)[C@@H]1O", "strain or isolate": "AZT-resistant Clinical isolate", "read by": "cytopathic effect / MTT", "result": "22 µM"}
{"SMILES": "Cc1cs/c(=N\\S(=O)(=O)c2cccc([N+](=O)[O-])c2)n1C", "strain or isolate": "IIIB", "read by": "cytopathic effect / MTT", "result": ">25 µM"}
{"SMILES": "CNc1ncnc2c1ncn2[C@@H]1C[C@H](CO)CS1", "read by": "cytopathic effect", "result": ">48.2 µM"}
{"SMILES": "Cc1cc(C#Cc2ccccn2)cc(C)c1Oc1ccnc(Nc2ccc(C#N)cc2)n1", "strain or isolate": "IIIB", "changes": "Y181C", "read by": "MTT", "result": "1.231 µM"}
{"SMILES": "Cc1cn([C@H]2C[C@H](F)[C@@H](CO)O2)c(=O)[nH]c1=O", "strain or isolate": "121-2(PRE-AZT)", "read by": "p24 / ELISA", "result": "0.007 µM"}
{"SMILES": "CC(=O)c1s/c(=N\\S(=O)(=O)c2cccc([N+](=O)[O-])c2)n(C)c1C", "strain or isolate": "IIIB", "read by": "cytopathic effect / MTT", "result": ">25 µM"}
{"SMILES": "Cc1cc(C#Cc2cccc(N)c2)cc(C)c1Oc1ccnc(NC2CCN(Cc3ccc(C#N)cc3)CC2)n1", "strain or isolate": "IIIB", "changes": "L100I", "read by": "MTT", "result": ">0.261 µM"}
{"SMILES": "CC(C)(C)NC(=O)[C@@H]1CSCN1C(=O)[C@@H](O)[C@H](Cc1ccccc1)NC(=O)[C@H](CCC(F)(F)F)NC(=O)COc1cccc2cnccc12", "strain or isolate": "IIIB", "read by": "cytopathic effect / MTT", "result": "0.03 µg/mL"}
{"SMILES": "CC(C)Nc1cccnc1N1CCN(C(=O)c2cc3cc(NS(C)(=O)=O)ccc3[nH]2)CC1", "strain or isolate": "DI-06.92 (HXB2 RT-K70R)", "changes": "RT-K70R", "read by": "cytopathic effect", "result": "0.02 µM"}
{"SMILES": "Nc1ccn([C@H]2C[C@H](CO)CS2)c(=O)n1", "read by": "cytopathic effect", "result": ">100 µM"}
{"SMILES": "Nc1ccn([C@H]2CC[C@@H](CO)O2)c(=O)n1", "strain or isolate": "Clone ddC-resistant RT K65R", "changes": "RT-K65R", "read by": "syncytia", "result": "0.161 µM"}
{"SMILES": "Cc1cn([C@H]2C[C@H](N=[N+]=[N-])[C@@H](CO)O2)c(=O)[nH]c1=O", "strain or isolate": "NL4-3", "read by": "cytopathic effect / MTT", "result": "0.004 µM"}
{"SMILES": "CNC(=O)CSP(=O)(NCC(=O)OC)OCCOCn1cnc2c(=O)[nH]c(N)nc21", "read by": "cytopathic effect / XTT", "result": "70 µM"}
{"SMILES": "Cc1cc(C#Cc2cccc(N)c2)cc(C)c1Oc1ccnc(Nc2ccc(C#N)cc2)n1", "strain or isolate": "IIIB", "read by": "MTT", "result": "0.013 µM"}
{"SMILES": "COc1ccc(S(=O)(=O)N(CC(C)C)C[C@@H](O)[C@H](Cc2ccccc2)NC(=O)O[C@H]2CO[C@H]3O[C@@H]4OCC[C@@H]4[C@H]32)cc1", "strain or isolate": "NL4-3", "changes": "A71T", "read by": "p24 / luminescence", "result": "0.0014 µM"}
{"SMILES": "COC(=O)C1C(=O)N(O)C(=O)c2ccccc21", "strain or isolate": "IIIB", "read by": "MTT", "result": "13.44 µM"}
{"SMILES": "CC(C)(C)NC(=O)[C@@H]1C[C@@H]2CCCC[C@@H]2CN1C[C@@H](O)[C@H](Cc1ccccc1)NC(=O)[C@H](CC(N)=O)NC(=O)c1ccc2ccccc2n1", "strain or isolate": "IIIB", "read by": "cytopathic effect / MTT", "result": "<0.008 µg/mL"}
{"SMILES": "Cc1cc(C#Cc2ccc(C(=O)O)cc2)cc(C)c1Oc1ccnc(Nc2ccc(C#N)cc2)n1", "strain or isolate": "IIIB", "changes": "L100I", "read by": "MTT", "result": "0.289 µM"}
{"SMILES": "CC(C)c1cn(C)/c(=N/S(=O)(=O)c2cccc([N+](=O)[O-])c2)s1", "strain or isolate": "IIIB", "read by": "cytopathic effect / MTT", "result": "3.1 µM"}
{"SMILES": "Cc1cn([C@H]2C=C[C@@H](CO)O2)c(=O)[nH]c1=O", "strain or isolate": "LZ-07.96 (HXB2 RT T69N L74I Q151M M184V)", "changes": "RT-T69N L74I Q151M M184V", "read by": "cytopathic effect", "result": "4.77 µM"}
{"SMILES": "Cc1cn([C@H]2C[C@H](F)[C@@H](CO)O2)c(=O)[nH]c1=O", "read by": "cytopathic effect / XTT", "result": "0.005 µM"}
{"SMILES": "CNc1ncnc2c1ncn2[C@H]1C[C@H](CO)CS1", "read by": "cytopathic effect", "result": ">54.8 µM"}

6 of the rows above, restated:

SMILES | strain or isolate | changes | read by | result
CNc1ncnc2c1ncn2[C@@H]1C[C@H](CO)CS1 |  |  | cytopathic effect | >48.2 µM
Cc1cn([C@H]2C[C@H](F)[C@@H](CO)O2)c(=O)[nH]c1=O |  |  | cytopathic effect / XTT | 0.005 µM
CC(C)c1s/c(=N\S(=O)(=O)c2cccc([N+](=O)[O-])c2)n(C)c1Cl | IIIB |  | cytopathic effect / MTT | 0.048 µM
Cc1cc(C#Cc2ccccn2)cc(C)c1Oc1ccnc(Nc2ccc(C#N)cc2)n1 | IIIB | Y181C | MTT | 1.231 µM
CNC(C)[C@H]1O[C@H](O[C@@H]2[C@@H](O)[C@H](O[C@@H]3OC[C@@](C)(O)[C@@H](NC)[C@@H]3O)[C@@H](NC(=O)[C@@H](N)CCCN=C(N)N)C[C@H]2NC(=O)[C@@H](N)CCCN=C(N)N)[C@H](NC(=O)[C@@H](N)CCCN=C(N)N)[C@@H](O)[C@@H]1O | AZT-resistant Clinical isolate |  | cytopathic effect / MTT | 22 µM
CC(C)(C)NC(=O)[C@@H]1C[C@@H]2CCCC[C@@H]2CN1C[C@@H](O)[C@H](Cc1ccccc1)NC(=O)[C@H](CC(N)=O)NC(=O)c1ccc2ccccc2n1 | IIIB |  | cytopathic effect / MTT | <0.008 µg/mL

ECn is the concentration giving n% inhibition of infection, replication or growth. Lines come from different laboratories, so protocols vary.